# Measurements taken from US9353152B2, “Induction of the mitochondrial permeability transition” (NewSouth Innovations Pty Limited, priority 2002, dated 2016).
# Test system: BAE cells
# Experiment: Cell viability assay, attached cells (methylene blue), proliferating or growth-quiescent cells
# Type: cell-based, bovine
# Details: 48 h
substance,measurement,setting,value
phenyl arsenoxide,IC50,"read-out: IC50 (toxicity), growth-quiescent BAE cells, 0.25% serum",200 nM
same,IC50,"read-out: IC50 (toxicity), proliferating BAE cells, 10% serum",200 nM

# Like-named read-outs stand apart in the source and are kept apart here.
